For at least one entry, the source does not settle the construct or the ends of the probe. For some assays here: At least one verdict rests on a figure or table, not on a statement of the authors.
Tests used:
Experiment in all cases: EMSA
[1] = system: LuxTVc (6xHis-LuxT) (Vibrio cholerae C6706); conditions: pH 8, […], 20 min room temperature, recombinant protein, protein details: N-term 6xHis (pET15b)
[2] = system: LuxTVc delta8-AA N-term (Vibrio cholerae C6706); conditions: affinity similar to LuxTVc, pH 8, […], 20 min room temperature, recombinant protein, protein details: N-term 6xHis (pET15b)
[3] = system: LuxTVh (6xHis-LuxT) (Vibrio harveyi); conditions: pH 8, […], 20 min room temperature, recombinant protein, protein details: 6xHis

## CGTTATTGGCTTGTTGCTTCGCGTATTCAAGAGGATCTTTGTTGACTCAAACAATTATGCATAAAGGGGGGATTTCCCCCCTTTTTCATTTGTATCCTGTTCGGTAAAGTACAAACCGAAATGACTAAAAAAATTTCATTCATTATTAACGGCCAGGTTGAAATCTTTCCCGAAAGTGATGATTTAGTGCAATCCATTAA (double strand) [PvqmRVm LuxT site]
[1]
  binding result: binds

## TCAGCCCTCTTTTTTTATATATTTAATCTTGCCCTCATAATCAGTACGCTGTATTATCAATTACAACCGAACTACGTACTGTTTAGTTGTCGTCACGATAATAAAATTTCATGAGGTTGCTTGTGTCTAG (double strand) [PswrZVh -110 to +20]
[1]; two band shifts
  binding result: binds
[2]
  binding result: binds
[3]
  binding result: binds

## TTATGTCGGTTTCCGAGTATTGCGCGAGCTGTAATGTTGACTCAAACAATTATGCATAAAGGGGGGATTTCCCCCCTTTTTCATTTGTACCGCGTTCGGTAAAGTACAAACCAGAGCATGAGTTGCATGACTGATGCTTGGTATCAATATGATACCTCTG (double strand) [PvqmRVc -111 to +49]
[1]
  binding result: binds

From article PMC13251380
